A mixed list of measured activities; the numbers were collected in NIAID ChemDB.

Common to all: cytotoxicity tests; measure: CC50

Lines come from different laboratories, so protocols vary. CCn is the concentration with n% toxicity to the cells.

smiles,cell line,value
Nc1ncnc2c1ncn2[C@H]1C[C@@H](O)[C@@H](CO)O1,HeLa,400 µg/mL
CO[C@H]1C(n2cc(C)c(NC(C)=O)nc2=O)O[C@H](CO)[C@H]1O,VERO 76,>100 µM
CC1=CC2O[C@H]3C[C@H]4OC(=O)/C=C\C=C\[C@H](C(C)O)OCC/C(C)=C/C(=O)OCC2(CC1)[C@@]4(C)[C@]31CO1,VERO,0.0072 µg/mL
O=C(O)/C(S)=C/c1ccc(I)cc1,VERO 76,>100 µM
CC(=O)Nc1cc2c(O)c(N=Nc3ccc(S(N)(=O)=O)cc3)c(S(=O)(=O)O)cc2cc1S(=O)(=O)O,VERO,>400 µM
CN(C)c1nc(N)nc2c1ncn2CCOCP(=O)(O)O,HFF,>316 µM
CCN(C)c1nc(N)nc2c1ncn2CCOCP(=O)(O)O,PHK,2.2 µg/mL
Nc1ncnc2c1ncn2[C@@H]1C=C(CO)[C@@H](O)[C@H]1O,HeLa,0.17 µg/mL
Nc1ncnc2c1ncn2[C@@H]1O[C@H](CO)C[C@H]1O,HeLa,200 µg/mL
C#CCNc1nc(N)nc2c1ncn2CCOCP(=O)(O)O,PHK,2.9 µg/mL
CC1=C[C@H]2O[C@@H]3C[C@H]4OC(=O)/C=C\C=C\C(=O)OCC[C@@H](C)[C@H](O)C(=O)OC[C@@]2(CC1)[C@]4(C)[C@]31CO1,VERO,0.0066 µg/mL
CN(C)CCN1CCCCC1C12CC3CC(CC(C3)C1)C2,MDCK,616 µM
Nc1nccc2c1ncn2[C@@H]1C=C[C@@H](O)[C@H]1O,HeLa,5.6 µg/mL
Nc1nc2c(ncn2CC(CO)OCP(=O)(O)O)c(=O)[nH]1,PHK,6.6 µg/mL
CCCCCCCCCCCCCCCCCCOCCOP(=O)(O)CO[C@H](CO)Cn1ccc(N)nc1=O,HFF,14.3 µM
C1CCN(CCN2CCCCC2C23CC4CC(CC(C4)C2)C3)CC1,MDCK,561 µM
Nc1nc2c(ncn2C[C@H]2COP(=O)(O)CO2)c(=O)[nH]1,PHK,8.2 µg/mL
CCOC(=O)C12CC3CC(CC(C3)C1)C2,MDCK,196 µM
CNc1nc(N)nc2c1ncn2CCOCP(=O)(O)O,PHK,5 µg/mL
Nc1nccc2c1ncn2[C@@H]1C=C(CO)[C@@H](O)[C@H]1O,VERO E6,>1700 µM
CCCCNc1nc(N)nc2c1ncn2CCOCP(=O)(O)O,PHK,11.3 µg/mL
O=Nc1ccc2ccccc2c1N=Nc1ccccc1C(=O)O,VERO,363.7 µM
CCCCOC(=O)[C@H](C)NP1(=O)CO[C@@H](Cn2ccc(N)nc2=O)CO1,HFF,>153 µM
NC12CC3CC(CC(C3)C1)C2,MDCK,>1333 µM
Nc1nc(NCC(F)(F)F)c2ncn(CCOCP(=O)(O)O)c2n1,HFF,>270 µM
Nc1ncnc2c1ncn2[C@@H]1C=C(CO)[C@@H](O)[C@H]1O,VERO E6,60 µM
Nc1nc(N)c2ncn(CC(CO)OCP(=O)(O)O)c2n1,PHK,17.3 µg/mL
CCCCCCCCCCCCCCCCOCCCOP1(=O)CO[C@@H](Cn2ccc(N)nc2=O)CO1,HFF,>100 µM
Nc1ncnc2c1ccn2[C@@H]1O[C@H](CSCCC(NC(=O)C(F)(F)F)C(=O)O)[C@@H](O)[C@H]1O,HeLa,>400 µg/mL
Nc1ccn(C[C@@H](CO)OCP(=O)(O)O)c(=O)n1,HFF,278.4 µM
O=C(Nc1ccn([C@@H]2O[C@H](CO)C[C@H]2O)c(=O)n1)c1ccccc1,VERO 76,>100 µM

A second listing of 2 rows from above:

{"smiles": "O=C(O)/C(S)=C/c1ccc(I)cc1", "cell line": "VERO 76", "value": ">100 µM"}
{"smiles": "CNc1nc(N)nc2c1ncn2CCOCP(=O)(O)O", "cell line": "PHK", "value": "5 µg/mL"}